Literature values as cited in PMC6259134, “Synthesis, Antimycobacterial, Antifungal and Photosynthesis-Inhibiting Activity of Chlorinated N-phenylpyrazine-2-carboxamides” (Molecules, 2010).

Tested on: photosystem II (PS II)
Set-up: method as in ref 8 = [8]; 8. Doležal M. Kráľová K. Šeršeň F. Miletín M. The site of action of some anilides of pyrazine-2-carboxylic acids in the photosynthetic apparatus Folia Pharm. Univ. Carol. 2001 26 13 20
Conditions: cited from earlier work

| Structure (SMILES) | interaction with PS II intermediates |
| --- | --- |
| CC(C)(C)c1ncc(C(=O)Nc2ccc(O)cc2)nc1Cl [6-chloro-5-tert-butyl-N-(4-hydroxyphenyl)pyrazine-2carboxamide] | interacted only with the D^+ intermediate |
| CC(C)(C)c1ncc(C(=O)Nc2cc(O)cc(Cl)c2)nc1Cl [6-chloro-5-tert-butyl-N-(5-chloro-3-hydroxyphenyl)pyrazine-2carboxamide] | interacted only with the D^+ intermediate |
